What is called EC50 is the concentration at which the effect is half-maximal. Usually Kd stands for the concentration at which binding is half-saturated.

Three substances from patent US20210324082A1 can be followed below.

Assay [1] addresses human PD-L1 (CD274), human, Q9NZQ7 19-290. Put plainly: flow cytometry cell binding; row printed as "Binding Kd EC50".
Assay [2] shares this target. Put plainly: binding to human PD-L1.
For assay [3] the target is unchanged. As to the kind of experiment: membrane proteome array, 5,300 human proteins expressed on HEK-293T cells.

In assay [1], DI-SLTA-1::scFvb::C1 displayed a half-maximal effective concentration (EC50) of 0.115 µg/mL. DI-SLTA-1::scFva::C1::C1 returned a Kd in assay [2] of 0.29 µg/mL. The EC50 in assay [1] is 0.293 µg/mL.

Regarding DI-SLTA-1::scFva::C1, the result in assay [3] is on record as “binds”.
